Tests used:
Hepatocyte = assay: Cytotoxicity against human primary hepatocytes; assay type: toxicity, cell-based
Outline: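 Host primary human hepatocytes (18 000 per collagen-coated well) in the P. vivax liver-stage radical-cure cultures. Compound given days 5–7 post-infection from a 12-point 1:3 dilution series; fixed at day 12 and imaged by high-content imaging. 0.1% DMSO negative control. CC50 fitted per run from duplicate wells; two independent experiments.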

HepG2 = assay: Cytotoxicity against human HepG2 cells incubated for 72 hrs by Hoechst 33342 staining based assay; assay type: toxicity, cell-based; settings: hepg2, 72 h
Outline: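 HepG2 cells, 2000 per collagen-coated well, treated the following day by pin transfer from a 12-point 1:3 dilution series (1000× DMSO stocks). Puromycin positive control; 0.1% v/v DMSO negative. After 72 h: fixed, Hoechst 33342 nuclear stain, high-content imaging. CC50 fitted per run from duplicate wells; three independent experiments.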

SMILES: CC1=C[C@H]2O[C@@H]3C[C@@H](O)[C@](C)([C@@]2(CO)CC1)[C@@]31CO1
- CC50 (Hepatocyte): > 10 µM
- pCC50 (Hepatocyte): < 5
- CC50 (HepG2): > 10 µM
- pCC50 (HepG2): < 5

Reference: ChEMBL document CHEMBL5357032, “In Vitro Antimalarial Activity of Trichothecenes against Liver and Blood Stages of Plasmodium Species” (J Nat Prod, 2024)
